# Potato spindle tuber viroid, loop 15: variant abundance in plants

Data from the supplement of Wu et al. 2024, doi:10.1371/journal.ppat.1012142.

The pool varies loop 15 of the PSTVd intermediate strain in the pattern GGAAACCGNNNNNNC; wild type is GGAAACCGCUACUAC (upper and lower strand joined, each 5' to 3', the first 7 letters being the upper strand, closing pairs included).

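Three N. benthamiana plants were inoculated with the whole mutant pool. Samples came from the inoculated region at 5 days, the leaf margin at 10 and upper systemic leaves at 12.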

Values are reads per thousand in the sample; higher means more abundant, 0 means not found. Each site shows the three plants. "Pool" is the share in the plasmid pool used as inoculum, on the same scale. The inoculated region was read from the minus strand, the other sites from the plus strand. Wild type was 33.9 per thousand in the pool and the most common sequence in every sample (inoculated region 202, 200, 159; leaf margin 724, 746, 710; systemic leaves 856, 883, 880). With 43,870-66,106 reads a sample, very low values are single reads. The authors trace changes outside the varied positions to PCR and sequencing errors or to mutation in the plant; presence does not show that a variant is infectious alone.

sequence	pool	inoculated region	leaf margin	systemic leaves
GGAAACCGGGUAAGC	0.224	0.115 / 0.0321 / 0.0952	0 / 0.0445 / 0	0 / 0 / 0
GGAAACCGGGUAAUC	0.208	0.164 / 0.112 / 0.0762	0 / 0 / 0.0200	0 / 0 / 0
GGAAACCGGGUACAC	0.288	0.0655 / 0.0803 / 0.0952	0 / 0 / 0	0 / 0 / 0
GGAAACCGGGUACCC	0.208	0.0655 / 0.0482 / 0.0952	0 / 0.0223 / 0	0.0161 / 0 / 0
GGAAACCGGGUACGC	0.224	0.115 / 0.145 / 0.0762	0 / 0 / 0	0.0161 / 0 / 0.0228
GGAAACCGGGUACUC	0.240	0.0655 / 0.0964 / 0.209	0 / 0 / 0	0 / 0 / 0
GGAAACCGGGUAGAC	0.176	0.0655 / 0.0803 / 0.114	0 / 0 / 0.0601	0 / 0 / 0
GGAAACCGGGUAGCC	0.112	0.0983 / 0.0803 / 0.0762	0 / 0.0223 / 0	0 / 0 / 0
GGAAACCGGGUAGGC	0.336	0.0655 / 0.129 / 0.114	0 / 0 / 0.0200	0 / 0 / 0
GGAAACCGGGUAGUC	0.288	0.147 / 0.0964 / 0.0571	0.0162 / 0.0223 / 0.0200	0 / 0 / 0
GGAAACCGGGUAUAC	0.256	0.344 / 0.369 / 0.267	0.0647 / 0.156 / 0.0401	0.0483 / 0 / 0
GGAAACCGGGUAUCC	0.256	0.0491 / 0.129 / 0.0571	0 / 0.0223 / 0.0401	0 / 0 / 0
GGAAACCGGGUAUGC	0.160	0.147 / 0.112 / 0.114	0.0162 / 0.0223 / 0.0401	0.0161 / 0 / 0
GGAAACCGGGUAUUC	0.336	0.0491 / 0.0321 / 0.0762	0 / 0 / 0	0 / 0 / 0
GGAAACCGGGUCAAC	0.304	0.0655 / 0.0964 / 0.114	0 / 0.0223 / 0.0401	0 / 0 / 0
GGAAACCGGGUCACC	0.176	0.0491 / 0.0964 / 0.0381	0.0323 / 0 / 0	0 / 0 / 0
GGAAACCGGGUCAGC	0.288	0.0819 / 0.0643 / 0.0762	0 / 0 / 0	0 / 0 / 0
GGAAACCGGGUCAUC	0.256	0.0819 / 0.129 / 0.228	0 / 0.0223 / 0.0401	0.0161 / 0 / 0
GGAAACCGGGUCCAC	0.192	0.115 / 0.0643 / 0.0762	0 / 0.0445 / 0	0 / 0 / 0
GGAAACCGGGUCCCC	0.144	0.147 / 0.161 / 0.114	0.0162 / 0.0445 / 0.0401	0 / 0 / 0
GGAAACCGGGUCCGC	0.304	0.0655 / 0.129 / 0.0571	0 / 0 / 0.0601	0 / 0 / 0
GGAAACCGGGUCCUC	0.304	0.115 / 0.145 / 0.152	0.0162 / 0.0445 / 0	0.0161 / 0 / 0
GGAAACCGGGUCGAC	0.192	0.0655 / 0.0643 / 0.133	0.0162 / 0 / 0	0 / 0 / 0
GGAAACCGGGUCGCC	0.224	0.131 / 0.0321 / 0.0190	0 / 0 / 0	0 / 0 / 0
GGAAACCGGGUCGGC	0.256	0.229 / 0.177 / 0.133	0 / 0 / 0.0200	0 / 0 / 0
GGAAACCGGGUCGUC	0.240	0.0655 / 0.225 / 0.190	0 / 0.0223 / 0	0 / 0 / 0
GGAAACCGGGUCUAC	0.176	0.147 / 0.0964 / 0.0571	0 / 0 / 0.0401	0 / 0 / 0
GGAAACCGGGUCUCC	0.304	0.180 / 0.0803 / 0.133	0 / 0 / 0.0200	0 / 0 / 0
GGAAACCGGGUCUGC	0.160	0.0655 / 0.0321 / 0.0571	0 / 0 / 0	0 / 0 / 0
GGAAACCGGGUCUUC	0.160	0.0819 / 0.0643 / 0.152	0.0162 / 0 / 0	0.0322 / 0 / 0
GGAAACCGGGUGAAC	0.256	0.0491 / 0.0643 / 0.133	0 / 0 / 0.0200	0 / 0 / 0
GGAAACCGGGUGACC	0.256	0.0655 / 0.129 / 0.0571	0 / 0 / 0.0200	0 / 0 / 0
GGAAACCGGGUGAGC	0.272	0.0983 / 0.0643 / 0.0762	0 / 0 / 0.0200	0 / 0 / 0
GGAAACCGGGUGAUC	0.176	0.0983 / 0.0964 / 0.0762	0 / 0 / 0	0 / 0 / 0
GGAAACCGGGUGCAC	0.240	0.131 / 0.0964 / 0.0952	0 / 0 / 0.0200	0 / 0 / 0
GGAAACCGGGUGCCC	0.224	0.147 / 0.0803 / 0.0190	0 / 0 / 0.0200	0 / 0 / 0
GGAAACCGGGUGCGC	0.256	0.0819 / 0.161 / 0.0571	0 / 0 / 0	0 / 0 / 0
GGAAACCGGGUGCUC	0.224	0.0655 / 0.193 / 0.0571	0 / 0 / 0	0 / 0 / 0
GGAAACCGGGUGGAC	0.128	0.0655 / 0.0321 / 0.152	0 / 0 / 0	0.0161 / 0 / 0
GGAAACCGGGUGGCC	0.160	0.115 / 0.112 / 0.133	0 / 0 / 0	0 / 0 / 0
GGAAACCGGGUGGGC	0.208	0.0819 / 0.0803 / 0.0381	0.0323 / 0 / 0.0200	0.0322 / 0 / 0.0228
GGAAACCGGGUGGUC	0.304	0.213 / 0.112 / 0.0381	0 / 0 / 0.0401	0.0161 / 0 / 0
GGAAACCGGGUGUAC	0.304	0.246 / 0.257 / 0.324	0.162 / 0.156 / 0.200	0.0322 / 0.0454 / 0.0456
GGAAACCGGGUGUCC	0.176	0.0491 / 0.0482 / 0.152	0.0162 / 0 / 0.0200	0 / 0 / 0
GGAAACCGGGUGUGC	0.192	0.164 / 0.0643 / 0.0952	0.0323 / 0 / 0.0601	0 / 0 / 0
GGAAACCGGGUGUUC	0.128	0.0819 / 0.112 / 0.0762	0 / 0 / 0.0401	0 / 0 / 0
GGAAACCGGGUUAAC	0.240	0.0328 / 0.0482 / 0.0571	0 / 0 / 0.0200	0 / 0 / 0
GGAAACCGGGUUACC	0.256	0.147 / 0.0321 / 0.0381	0.0162 / 0 / 0.0401	0 / 0 / 0
GGAAACCGGGUUAGC	0.320	0.0819 / 0.129 / 0.0762	0 / 0 / 0.0401	0 / 0 / 0
GGAAACCGGGUUAUC	0.288	0.115 / 0.0482 / 0.190	0 / 0 / 0.0401	0 / 0 / 0

The last 3 entries again:

sequence,pool,inoculated region,leaf margin,systemic leaves
GGAAACCGGGUUACC,0.256,0.147 / 0.0321 / 0.0381,0.0162 / 0 / 0.0401,0 / 0 / 0
GGAAACCGGGUUAGC,0.320,0.0819 / 0.129 / 0.0762,0 / 0 / 0.0401,0 / 0 / 0
GGAAACCGGGUUAUC,0.288,0.115 / 0.0482 / 0.190,0 / 0 / 0.0401,0 / 0 / 0